Measured values from several laboratories, pooled; numbers as filed in NIAID ChemDB.

All rows: growth or infection tests; species: Mycobacterium tuberculosis

ECn: concentration that inhibits the pathogen or its effect by n%.

compound,strain,mutations,method,setting,measure,dose,value
CC(C)=CCC[C@](C)(O[C@@H]1O[C@H](CO[C@@H]2OC[C@H](O)[C@H](O)[C@H]2O)[C@@H](O)C(O)[C@H]1O)[C@H]1CC[C@]2(C)[C@@H]1[C@H](O)C[C@@H]1[C@@]3(C)CC[C@H](O[C@@H]4O[C@H](CO)[C@@H](O)[C@H](O)[C@H]4O[C@@H]4O[C@H](CO)[C@@H](O)[C@H](O)[C@H]4O)C(C)(C)[C@@H]3CC[C@]12C,H37Rv,-,BACTEC,-,MIC bound,-,>12.5 µg/mL
C[C@@H]1CN(c2c(F)c(N)c3c(=O)c(C(=O)O)cn(C4CC4)c3c2F)C[C@H](C)N1,H37Rv,-,-,-,MIC,-,0.2 µg/mL
CC(C)=NOC(=O)CNC(=O)C(Cc1ccccc1)NC(=O)C(C)NC(=O)OC(C)(C)C,H37Rv,-,resazurin,-,inhibition,6.25 µg/mL,34%
COc1ccc(C2Oc3ccccc3C(=O)C2O)cc1,H37Rv,-,-,-,EC50,-,>12.5 µg/mL
c1ccc(-c2[nH]c(-c3ccccc3)c(-c3cnccn3)c2-c2cnccn2)cc1,H37Rv,-,BACTEC,-,MIC bound,-,>12.5 µg/mL
CC(CNCCC(c1ccccc1)c1ccccc1)NC1CCCCCCC1,-,-,-,-,MIC,-,12.5 µM
CO[C@H]1/C=C/O[C@@]2(C)Oc3c(C)c(O)c4c(=O)c(c5oc6cc(N7CCN(CC(C)C)CC7)cc(=O)c6nc5c4c3=C2O)NC(=O)/C(C)=C\C=C\[C@H](C)[C@H](O)[C@@H](C)[C@@H](O)[C@@H](C)[C@H](OC(C)=O)[C@@H]1C,3125 (rifampin-sensitive),-,-,-,MBC,-,0.025 µg/mL
CC(CCc1ccccc1)NCCNC(C)Cc1c[nH]c2ccccc12,-,-,-,-,MIC,-,50 µM
Cc1ccc2nc(C(O)C(O)C(O)CO)[nH]c2c1,H37Rv,-,BACTEC,-,MIC bound,-,>6.25 µg/mL
Fc1ccccc1CCNCCNCC(c1ccccc1)c1ccccc1,-,-,-,-,MIC,-,50 µM
NCC[C@H](O)C(=O)N[C@@H]1C[C@H](N)[C@@H](O[C@H]2O[C@H](CN)[C@@H](O)[C@H](O)[C@H]2O)[C@H](O)[C@H]1O[C@H]1O[C@H](CO)[C@@H](O)[C@H](N)[C@H]1O,5S,-,-,-,MIC,-,2.5 µg/mL
COc1c(N2CCNC(C)C2)c(F)cc2c(=O)c(C(=O)O)cn(C3CC3)c12,Strain 7,-,-,-,MIC,-,0.125 µg/mL
COc1cc(O)c(C(=O)/C=C/c2cc(OC)c(OC)c(OC)c2)c(O)c1,H37Rv,-,-,-,EC50,-,>12.5 µg/mL
COc1ccc(-c2coc3c4c(c(CC=C(C)C)c(O)c3c2=O)OC(C)(C)C=C4)cc1OC,H37Rv,-,BACTEC,-,MIC bound,-,>12.5 µg/mL
c1ccc(C(CCNCCNC2CCc3ccccc32)c2ccccc2)cc1,-,-,-,-,MIC,-,12.5 µM
CO[C@H]1/C=C/O[C@@]2(C)Oc3c(C)c(O)c4c(=O)c(c5oc6cc(N7CCN(CC(C)C)CC7)cc(=O)c6nc5c4c3=C2O)NC(=O)/C(C)=C\C=C\[C@H](C)[C@H](O)[C@@H](C)[C@@H](O)[C@@H](C)[C@H](OC(C)=O)[C@@H]1C,FUJII,-,-,inside macrophages,inhibition,10 µg/mL,97.5%
c1ccc(C(CNCCNC23CC4CC(CC(C4)C2)C3)c2ccccc2)cc1,-,-,-,-,MIC,-,37.5 µM
CO[C@H]1/C=C/O[C@@]2(C)Oc3c(C)c(O)c4c(O)c(c(/C=N/N5CCN(C6CCCC6)CC5)c(O)c4c3C2=O)NC(=O)/C(C)=C\C=C\[C@H](C)[C@H](O)[C@@H](C)[C@@H](O)[C@@H](C)[C@H](OC(C)=O)[C@@H]1C,H37Rv,-,-,-,MIC,-,0.125 µg/mL
NC(=O)c1cnccn1,Isolate 9131 monodrug-resistant,-,-,-,MIC,-,>300 µg/mL
NNC(=O)c1ccncc1,9135,-,-,-,MIC,-,≥0.2 µg/mL
CO[C@H]1/C=C/O[C@@]2(C)Oc3c(C)c(O)c4c(=O)c(c5oc6cc(N7CCN(CC(C)C)CC7)cc(=O)c6nc5c4c3=C2O)NC(=O)/C(C)=C\C=C\[C@H](C)[C@H](O)[C@@H](C)[C@@H](O)[C@@H](C)[C@H](OC(C)=O)[C@@H]1C,TN565,-,-,-,MIC,-,32 µg/mL
OCc1ccccc1Sc1ccccc1CNCCNCc1ccc2c(c1)OCO2,-,-,-,-,MIC,-,50 µM
CC(C)CC(C)NCCNCCc1ccccc1,-,-,-,-,MIC,-,50 µM
Cc1nc(NN)c(C(N)=O)nc1C,H37Rv,-,BACTEC,-,MIC bound,-,>12.5 µg/mL
Nc1ccc(C(=O)/C=C/c2ccccc2)cc1,-,-,-,-,inhibition,12.5 µg/mL,5%
CCCCC(CC)CN1CN(CC(CC)CCCC)CC(C)(NCCNCc2ccc(F)cc2)C1,-,-,-,-,MIC,-,50 µM
O=C(NCCO)c1cccnc1,H37Rv,-,BACTEC,-,inhibition,12.5 µg/mL,7%
COc1ccc(C2CC(=O)c3c(cc(OC)c(-c4c(OC)cc5c(c4OC)C(=O)CC(c4ccc(OC)cc4)O5)c3OC)O2)cc1,H37Rv,-,-,-,EC50,-,>12.5 µg/mL
CO[C@H]1/C=C/O[C@@]2(C)Oc3c(C)c(O)c4c(O)c(c(/C=N/N5CCN(C)CC5)c(O)c4c3C2=O)NC(=O)/C(C)=C\C=C\[C@H](C)[C@H](O)[C@@H](C)[C@@H](O)[C@@H](C)[C@H](OC(C)=O)[C@@H]1C,98596,-,-,-,MIC,-,≥2 µg/mL
NNC(=O)c1ccncc1,Clinical isolate BRF 26,INH resistant,resazurin,-,MIC,-,2 µg/mL
CO[C@H]1/C=C/O[C@@]2(C)Oc3c(C)c(O)c4c(O)c(c5c(c4c3C2=O)NC2(CCN(CC(C)C)CC2)N=5)=NC(=O)/C(C)=C\C=C\[C@H](C)[C@H](O)[C@@H](C)[C@@H](O)[C@@H](C)[C@H](OC(C)=O)[C@@H]1C,Strain 72,-,-,-,MIC,-,1 µg/mL
CC(C)=CC[C@H](O)C1=CC(=O)c2c(O)ccc(O)c2C1=O,H37Rv,-,BACTEC,-,MIC bound,-,>12.5 µg/mL
CO[C@H]1/C=C/O[C@@]2(C)Oc3c(C)c(O)c4c(O)c(c(/C=N/N5CCN(C)CC5)c(O)c4c3C2=O)NC(=O)/C(C)=C\C=C\[C@H](C)[C@H](O)[C@@H](C)[C@@H](O)[C@@H](C)[C@H](OC(C)=O)[C@@H]1C,Isolate 8,-,-,-,MIC,-,>32 µg/mL
CO[C@H]1/C=C/O[C@@]2(C)Oc3c(C)c(O)c4c(O)c(c(/C=N/N5CCN(C/C=C/c6ccccc6)CC5)c(O)c4c3C2=O)NC(=O)/C(C)=C\C=C\[C@H](C)[C@H](O)[C@@H](C)[C@@H](O)[C@@H](C)[C@H](OC(C)=O)[C@@H]1C,2219 (rifampin-resistant),-,-,-,MBC,-,0.8 µg/mL
CO[C@H]1/C=C/O[C@@]2(C)Oc3c(C)c(O)c4c(O)c(c(/C=N/N5CCN(C)CC5)c(O)c4c3C2=O)NC(=O)/C(C)=C\C=C\[C@H](C)[C@H](O)[C@@H](C)[C@@H](O)[C@@H](C)[C@H](OC(C)=O)[C@@H]1C,Clinical isolate 7791,Isoniazid-resistant,broth dilution,-,MIC,-,≤1 µM
NNC(=O)c1ccncc1,Strain 35,-,-,-,MIC,-,0.125 µg/mL
CC(C)c1ccc2c(c1)CC[C@H]1[C@](C)(CNCCNCc3ccco3)CCC[C@]21C,-,-,-,-,MIC,-,50 µM
CCC[N+]1=C/c2ccccc2OC(=O)/C=C\1[O-],H37Rv,-,BACTEC,-,inhibition,12.5 µg/mL,58%
NNC(=O)c1ccncc1,Clinical isolate 16116,-,broth dilution,-,MIC,-,≤0.2 µM
CCCCN(CCCC)CCNc1ccc(Cl)c2oc3cc(C)ccc3c(=O)c12.Cl,H37Rv,-,BACTEC,-,inhibition,12.5 µg/mL,-6%
CO/C(C)=C1/NC(=O)[C@H]([C@@H](C)O)NC(=O)c2csc(n2)-c2cc(O)c(-c3nc(C(=O)NCCCN4CCOCC4)cs3)nc2-c2csc(n2)[C@@H]2COC(=O)c3c4c5c(cccc5n3O)COC(=O)[C@@H](O[C@H]3C[C@](C)(O)[C@H](N(C)C)[C@H](C)O3)[C@@H](OC4)[C@H](NC(=O)c3csc1n3)c1nc(cs1)C(=O)N2,Clinical isolate 7791,Isoniazid-resistant,broth dilution,-,MIC,-,≤2.5 µM
COC[C@H](NCCNC[C@]1(C)CCC[C@]2(C)c3ccc(C(C)C)cc3CC[C@@H]12)[C@@H](O)c1ccccc1,-,-,-,-,MIC,-,50 µM
O=C1c2ccccc2C(=O)c2c(NCCCNCCO)ccc(NCCCNCCO)c21,H37Rv,-,BACTEC,-,inhibition,12.5 µg/mL,56%
CCOc1cc(O)c(C(=O)/C=C/c2ccccc2)c(OCC)c1,-,-,-,-,inhibition,12.5 µg/mL,0%
NC[C@H]1O[C@H](O[C@H]2[C@H](O)[C@@H](O[C@H]3O[C@H](CO)[C@@H](O)[C@H](N)[C@H]3O)[C@H](N)C[C@@H]2N)[C@H](O)[C@@H](O)[C@@H]1O,A2B (amikacin-resistant),-,-,-,MIC,-,128 µg/mL
O=C(O)c1cccc([N+](=O)[O-])c1C(=O)Nc1ncc([N+](=O)[O-])s1,H37Rv,-,BACTEC,-,inhibition,12.5 µg/mL,12%
CO[C@H]1/C=C/O[C@@]2(C)Oc3c(C)c(O)c4c(O)c(c(/C=N/N5CCN(C)CC5)c(O)c4c3C2=O)NC(=O)/C(C)=C\C=C\[C@H](C)[C@H](O)[C@@H](C)[C@@H](O)[C@@H](C)[C@H](OC(C)=O)[C@@H]1C,PR819,-,-,-,MIC,-,0.04 µg/mL
C=C1C(=O)O[C@H]2/C=C(/C)[C@H](OC(C)=O)[C@@H]3O[C@H]3[C@@](C)(O)C[C@H](OC(=O)/C(C)=C\C)[C@H]12,H37Rv,-,BACTEC,-,inhibition,12.5 µg/mL,3%
NNC(=O)c1ccncc1,Isolate 13,-,-,-,MIC,-,32 µg/mL
Cc1c(CN2CCN(C)CC2)c(CN2CCN(C)CC2)c(C)n1-c1ccc(Cl)cc1,H37Rv,-,BACTEC,-,inhibition,6.25 µg/mL,36%
C=C(NC(=O)c1csc(-c2nc3c(cc2O)-c2nc(cs2)C(=O)N[C@@H]([C@@H](C)O)C(=O)N/C(=C(\C)OC)c2nc(cs2)C(=O)N[C@@H]2c4nc(cs4)C(=O)N[C@@H](COC(=O)c4c5c6c(cccc6n4O)COC(=O)[C@@H](O[C@H]4C[C@](C)(O)[C@H](N(C)C)[C@H](C)O4)[C@H]2OC5)c2nc-3cs2)n1)C(N)=O,Clinical isolate 8600,Rifampicin- and isoniazid-resistant,broth dilution,-,MIC,-,≤2.5 µM
Nc1nc2c(C(=O)c3ccco3)nnn2c2cccc(Cl)c12,H37Rv,-,BACTEC,-,inhibition,12.5 µg/mL,11%
COc1ccccc1CCNCCNCc1ccccc1Sc1ccccc1CO,-,-,-,-,MIC,-,50 µM
C[C@H]1COc2c(N3CCN(C)CC3)c(F)cc3c(=O)c(C(=O)O)cn1c23,Isolate 1,-,-,-,MIC,-,2 µg/mL
CC1(C)[C@H]2CC[C@@H](CNCCN3CCc4c([nH]c5ccccc45)C3)[C@@H]1C2,-,-,-,-,MIC,-,50 µM
NNC(=O)c1ccncc1,5S,-,-,-,MIC,-,0.1 µg/mL
COC(=O)[C@H]1[C@H]2C[C@H]3c4[nH]c5ccccc5c4CCN3C[C@@H]2CC[C@@H]1O,H37Rv,-,BACTEC,-,inhibition,12.5 µg/mL,5%
CC(=O)OC[C@H]1O[C@@H](Oc2cc(OC(C)=O)c3c(=O)cc(-c4ccc(OC(C)=O)cc4)oc3c2C2C(=O)c3c(OC(C)=O)cc(OC(C)=O)cc3OC2c2ccc(OC(C)=O)cc2)[C@H](OC(C)=O)[C@@H](OC(C)=O)[C@@H]1OC(C)=O,-,-,-,-,EC50,-,>12.5 µg/mL
Cc1cc(O)c(C(c2ccc(N(C)C)cc2Cl)c2c(O)cc(C)[nH]c2=O)c(=O)[nH]1,H37Rv,-,BACTEC,-,MIC bound,-,>12.5 µg/mL
Clc1ccc(CCNCCNC2CCCCC2)c(Cl)c1,-,-,-,-,MIC,-,50 µM
COc1ccc(N=Nc2c(C)c(C#N)c(=S)n([C@@H]3O[C@H](CO)[C@H](O)[C@H](O)[C@H]3O)c2C)cc1,H37Rv,-,resazurin,-,inhibition,6.25 µg/mL,15%
CCCCCC(C)NCCNC1(C)CN(CC(CC)CCCC)CN(CC(CC)CCCC)C1,-,-,-,-,MIC,-,25 µM
O=C1c2ccccc2C(=O)c2c(Nc3ccccc3)ccc(NCCO)c21,H37Rv,-,BACTEC,-,MIC bound,-,>12.5 µg/mL
NC(=O)c1cnccn1,CA516 niacin-negative,-,-,-,MIC,-,512 µg/mL
O=[N+]([O-])c1ccc(N/N=C/c2ccccc2O)nc1,H37Rv,-,BACTEC,-,MIC bound,-,>12.5 µg/mL
CCCCCCCCCCCNCCNCCc1ccc(O)c(OC)c1,-,-,-,-,MIC,-,12.5 µM

A second listing of 9 rows from above:

compound,strain,mutations,method,setting,measure,dose,value
Clc1ccc(CCNCCNC2CCCCC2)c(Cl)c1,-,-,-,-,MIC,-,50 µM
Nc1nc2c(C(=O)c3ccco3)nnn2c2cccc(Cl)c12,H37Rv,-,BACTEC,-,inhibition,12.5 µg/mL,11%
C[C@H]1COc2c(N3CCN(C)CC3)c(F)cc3c(=O)c(C(=O)O)cn1c23,Isolate 1,-,-,-,MIC,-,2 µg/mL
NNC(=O)c1ccncc1,5S,-,-,-,MIC,-,0.1 µg/mL
COc1ccc(-c2coc3c4c(c(CC=C(C)C)c(O)c3c2=O)OC(C)(C)C=C4)cc1OC,H37Rv,-,BACTEC,-,MIC bound,-,>12.5 µg/mL
CO[C@H]1/C=C/O[C@@]2(C)Oc3c(C)c(O)c4c(=O)c(c5oc6cc(N7CCN(CC(C)C)CC7)cc(=O)c6nc5c4c3=C2O)NC(=O)/C(C)=C\C=C\[C@H](C)[C@H](O)[C@@H](C)[C@@H](O)[C@@H](C)[C@H](OC(C)=O)[C@@H]1C,FUJII,-,-,inside macrophages,inhibition,10 µg/mL,97.5%
O=[N+]([O-])c1ccc(N/N=C/c2ccccc2O)nc1,H37Rv,-,BACTEC,-,MIC bound,-,>12.5 µg/mL
NNC(=O)c1ccncc1,Clinical isolate BRF 26,INH resistant,resazurin,-,MIC,-,2 µg/mL
NNC(=O)c1ccncc1,Strain 35,-,-,-,MIC,-,0.125 µg/mL

Blank or dashed fields: not listed here. Conditions beyond the fields shown may differ between rows. MIC bound comes from a single tested concentration. Inhibition is in % at the dose shown (toxicity tests: loss of growth or viability).